Measured values from several laboratories, pooled; numbers as filed in NIAID ChemDB.

Common to all: growth or infection tests; species: Sindbis virus; cell line: VERO; measure: EC50

ECn: concentration that inhibits the pathogen or its effect by n%.

compound,method,result
Cc1cccn2c(C3SCCS3)cnc12,,>1000 µM
CCCCCCCCCCCCCCCC(=O)OC[C@H]1O[C@H](OC(=O)NS(=O)(=O)OC[C@H]2O[C@@H](n3ccc(=O)[nH]c3=O)[C@H](OC(C)C)[C@@H]2OC(C)C)[C@H](OC(=O)CCCCCCCCCCCCCCC)[C@@H](OC(=O)CCCCCCCCCCCCCCC)[C@@H]1OC(=O)CCCCCCCCCCCCCCC,plaque count,>100 µg/mL
COC(=O)[C@]1(C)CCC[C@]2(C)c3ccc4[nH]c(C)nc4c3CCC12,plaque count,>4 µg/mL
Cc1ccn2c(C3OCCO3)cnc2c1,,>1000 µM
O=C(NS(=O)(=O)OC[C@H]1O[C@@H](n2ccc(=O)[nH]c2=O)[C@H](O)[C@@H]1O)O[C@@H]1C[C@@H](OC(=O)c2ccccc2)[C@H](OC(=O)c2ccccc2)[C@@H](COC(=O)c2ccccc2)O1,plaque count,200 µg/mL
CC(=O)OCCOCN1C=CC(=O)N(COCCO)S1(=O)=O,,>400 µg/mL
Cc1ccn2c(C(SCCc3ccccc3)SCCc3ccccc3)cnc2c1,,>1000 µM
COC(=O)[C@]1(C)CCC[C@]2(C)c3ccc4[nH]cnc4c3CCC12,plaque count,>4 µg/mL
Cc1ccn2c(C3OCCS3)cnc2c1,,>1000 µM
NC1=CC(N)=NS(=O)(=O)N1COCCO,,>400 µg/mL
COC(=O)Nc1nc2c3c(ccc2[nH]1)[C@@]1(C)CCC[C@@](C)(C(=O)OC)C1CC3,plaque count,>4 µg/mL
CC(=O)O[C@H]1C[C@H](n2cc(C)c(=O)[nH]c2=O)O[C@@H]1COS(=O)(=O)NC(=O)O[C@H]1O[C@H](COCc2ccccc2)[C@@H](OCc2ccccc2)[C@H](OCc2ccccc2)[C@H]1OCc1ccccc1,plaque count,50 µg/mL
COC(=O)[C@]1(C)CCC[C@]2(C)c3cc4cc[nH]c4cc3CCC12,plaque count,>4 µg/mL
CC(=O)OC[C@H]1O[C@@H](OC(=O)NS(=O)(=O)OC[C@H]2O[C@@H](n3ccc(=O)[nH]c3=O)[C@H](OC(C)C)[C@@H]2OC(C)C)[C@@H](OC(C)=O)[C@@H](OC(C)=O)[C@@H]1OC(C)=O,plaque count,100 µg/mL
O=c1[nH]cnc2c1ncn2C1C[C@H](CO)[C@@H](CO)C1,,>100 µg/mL
CC(=O)OCCOCN1C=C(C#N)C(N)=NS1(=O)=O,,>400 µg/mL
CC(C)O[C@@H]1[C@H](OC(C)C)[C@@H](COS(=O)(=O)NC(=O)O[C@H]2O[C@H](COCc3ccccc3)[C@@H](OCc3ccccc3)[C@H](OCc3ccccc3)[C@H]2OCc2ccccc2)O[C@H]1n1ccc(=O)[nH]c1=O,plaque count,>100 µg/mL
CC(C)Nc1ncnc2c1ncn2C1C[C@H](CO)[C@@H](CO)C1,,>100 µg/mL
N#CC1=CN(COCCO)S(=O)(=O)N=C1N,,>400 µg/mL
O=C(NS(=O)(=O)OCCOCn1ccc(=O)[nH]c1=O)O[C@H]1O[C@H](COCc2ccccc2)[C@@H](OCc2ccccc2)[C@H](OCc2ccccc2)[C@H]1OCc1ccccc1,plaque count,25 µg/mL
CC(=O)OCCOCN1C(=N)/C(=C(\C)O)C(N)=NS1(=O)=O,,>400 µg/mL
OC[C@H]1CC(n2cnc3c(NC4CC4)ncnc32)C[C@@H]1CO,,>100 µg/mL
O=C(NS(=O)(=O)OC[C@H]1O[C@@H](n2ccc(=O)[nH]c2=O)[C@H](O)[C@@H]1O)O[C@H]1O[C@H](COC(=O)c2ccccc2)[C@@H](OC(=O)c2ccccc2)[C@H](OC(=O)c2ccccc2)[C@H]1OC(=O)c1ccccc1,plaque count,55 µg/mL

2 of the rows above, restated:

compound,method,result
Cc1ccn2c(C3OCCS3)cnc2c1,,>1000 µM
Cc1cccn2c(C3SCCS3)cnc12,,>1000 µM

Blank or dashed fields: not listed here. Conditions beyond the fields shown may differ between rows.